Measured values from several laboratories, pooled; numbers as filed in NIAID ChemDB.

Shared fields: tests in culture; species: Staphylococcus aureus; read-out: MIC

Neighbouring rows are from separate reports.

smiles,strain,value
CC[C@H]1OC(=O)[C@H](C)C(=O)[C@H](C)[C@@H](O[C@@H]2O[C@H](C)C[C@H](N(C)C)[C@H]2O)[C@@]2(C)C[C@@H](C)C(=NC(C)=O)[C@H](C)[C@@H](OC/C(=N\OCc3ccc(C(N)=O)cc3)CO2)[C@]1(C)O,25923 (erythromycin-susceptible),0.13 µg/mL
CC(=O)NC[C@H]1CN(c2ccc(-c3ccsc3)c(F)c2)C(=O)O1,UC6685 (methicillin-resistant),0.5 µg/mL
CC[C@H]1OC(=O)[C@H](C)C(=O)[C@H](C)[C@@H](O[C@@H]2O[C@H](C)C[C@H](N(C)C)[C@H]2O)[C@@]2(C)C[C@@H](C)C(=NC(=O)CO)[C@H](C)C(OC/C(=C\C=C\c3ccccc3)CO2)[C@]1(C)O,33591 (erythromycin methicillin-resistant),32 µg/mL
CC[C@H]1OC(=O)[C@H](C)C(=O)[C@H](C)[C@@H](O[C@@H]2O[C@H](C)C[C@H](N(C)C)[C@H]2O)[C@@]2(C)C[C@@H](C)C(=NC(C)=O)[C@H](C)[C@@H](OC/C(=N\OCC#Cc3cncnc3)CO2)[C@]1(C)O,27660 (erythromycin-resistant),0.25 µg/mL
CC[C@H]1OC(=O)[C@H](C)C(=O)[C@H](C)[C@@H](O[C@@H]2O[C@H](C)C[C@H](N(C)C)[C@H]2O)[C@@]2(C)C[C@@H](C)C(=NC(C)=O)[C@H](C)[C@@H](OC/C(=N\OCc3ccc(-c4ncccn4)s3)CO2)[C@]1(C)O,33591 (erythromycin methicillin-resistant),32 µg/mL
O=C(NC[C@H]1CN(c2ccc3c(c2)-n2cccc2COC3)C(=O)O1)C(Cl)Cl,ATCC 33591 (MRSA),4 µg/mL
CC[C@H]1OC(=O)[C@H](C)C(=O)[C@H](C)[C@@H](O[C@@H]2O[C@H](C)C[C@H](N(C)C)[C@H]2O)[C@@]2(C)C[C@@H](C)C(=NC(C)=O)[C@H](C)C(OC/C(=C\C=C\c3ccc(OC)cc3)CO2)[C@]1(C)O,33591 (erythromycin methicillin-resistant),64 µg/mL
CC[C@H]1OC(=O)[C@@](C)(F)C(=O)[C@H](C)[C@@H](O[C@@H]2O[C@H](C)C[C@H](N(C)C)[C@H]2O)[C@@]2(C)C[C@@H](C)C(=NC(C)=O)[C@H](C)[C@@H](OC/C(=N\OCc3ccc(-c4csnn4)nc3)CO2)[C@]1(C)O,33591 (erythromycin methicillin-resistant),32 µg/mL
O=C1O[C@@H](COc2ccon2)CN1c1ccc(N2CC[C@H](O)C2)c(F)c1,122 (novobiocin-resistant),4 µg/mL
CC[C@H]1OC(=O)[C@@](C)(F)C(=O)[C@H](C)[C@@H](O[C@@H]2O[C@H](C)C[C@H](N(C)C)[C@H]2O)[C@@]2(C)C[C@@H](C)C(=NC(C)=O)[C@H](C)[C@@H](OC/C(=N\OCc3ccc(C(N)=O)cc3)CO2)[C@]1(C)O,29213 (erythromycin A-susceptible),0.13 µg/mL
O=C(CO)N[C@H]1CCN(c2ccc(N3C[C@H](CNc4ccon4)OC3=O)cc2F)C1,122 (novobiocin-resistant),2 µg/mL
CC[C@H]1OC(=O)[C@@](C)(F)C(=O)[C@H](C)[C@@H](O[C@@H]2O[C@H](C)C[C@H](N(C)C)[C@H]2O)[C@@]2(C)C[C@@H](C)C(=NC(C)=O)[C@H](C)[C@@H](OC/C(=N/OCc3ccc(-c4cccc(N)n4)s3)CO2)[C@]1(C)O,29213 (erythromycin A-susceptible),0.25 µg/mL
O=C1O[C@@H](COc2ccon2)CN1c1ccc(N2CC(O)C2)c(F)c1,004 (methicillin quinolone-resistant),16 µg/mL
CC[C@H]1OC(=O)[C@H](C)C(=O)[C@H](C)[C@@H](O[C@@H]2O[C@H](C)C[C@H](N(C)C)[C@H]2O)[C@@]2(C)C[C@@H](C)C(=NC(C)=O)[C@H](C)C(OC/C(=C\C=C\c3ccc(F)cc3)CO2)[C@]1(C)O,29213 (erythromycin-susceptible),0.5 µg/mL
CC[C@H]1OC(=O)[C@@](C)(F)C(=O)[C@H](C)[C@@H](O[C@@H]2O[C@H](C)C[C@H](N(C)C)[C@H]2O)[C@@]2(C)C[C@@H](C)C(=NC(C)=O)[C@H](C)[C@@H](OC/C(=N\OCc3ccc4nc(N)sc4c3)CO2)[C@]1(C)O,33591 (erythromycin methicillin-resistant),32 µg/mL
CCOC(=S)NC[C@H]1CN(c2ccc3c(c2)-n2cccc2COC3)C(=O)O1,ATCC 33591 (MRSA),4 µg/mL
CC[C@H]1OC(=O)[C@@](C)(F)C(=O)[C@H](C)[C@@H](O[C@@H]2O[C@H](C)C[C@H](N(C)C)[C@H]2O)[C@@]2(C)C[C@@H](C)C(=N)[C@H](C)[C@@H](OC/C(=N\OCc3ccc(-c4nccs4)nc3)CO2)[C@]1(C)O,29213 (erythromycin A-susceptible),0.5 µg/mL
CC(=O)NC[C@H]1CN(c2ccc(-c3cc(CO)on3)c(F)c2)C(=O)O1,UC6685 (methicillin-resistant),1 µg/mL
CC[C@H]1OC(=O)[C@H](C)C(=O)[C@H](C)[C@@H](O[C@@H]2O[C@H](C)C[C@H](N(C)C)[C@H]2O)[C@@]2(C)C[C@@H](C)C(=NC(C)=O)[C@H](C)[C@@H](OC/C(=N\Oc3ccc(-c4cnccn4)s3)CO2)[C@]1(C)O,33591 (erythromycin methicillin-resistant),>64 µg/mL
CC(=O)NC[C@H]1CN(c2ccc(-c3ncon3)c(F)c2)C(=O)O1,UC6685 (methicillin-resistant),4 µg/mL
O=C1O[C@@H](COc2ccon2)CN1c1ccc(-n2ccnc2)c(F)c1,004 (methicillin quinolone-resistant),1 µg/mL
CC[C@H]1OC(=O)[C@@](C)(F)C(=O)[C@H](C)[C@@H](O[C@@H]2O[C@H](C)C[C@H](N(C)C)[C@H]2O)[C@@]2(C)C[C@@H](C)C(=NC(C)=O)[C@H](C)[C@@H](OC/C(=N\OCc3cccc(C(N)=O)c3)CO2)[C@]1(C)O,33591 (erythromycin methicillin-resistant),>64 µg/mL
CC[C@H]1OC(=O)[C@H](C)C(=O)[C@H](C)[C@@H](O[C@@H]2O[C@H](C)C[C@H](N(C)C)[C@H]2O)[C@@]2(C)C[C@@H](C)C(=NC(C)=O)[C@H](C)C(OC/C(=C\C=C\c3ccccc3)CO2)[C@]1(C)O,33591 (erythromycin methicillin-resistant),>64 µg/mL
CS(=O)(=O)N[C@H]1CCN(c2ccc(N3C[C@H](CNc4ccon4)OC3=O)cc2F)C1,004 (methicillin quinolone-resistant),2 µg/mL
CC[C@H]1OC(=O)[C@H](C)C(=O)[C@H](C)[C@@H](O[C@@H]2O[C@H](C)C[C@H](N(C)C)[C@H]2O)[C@@]2(C)C[C@@H](C)C(=NC(C)=O)[C@H](C)C(OC/C(=C\C=C\c3ccc([N+](=O)[O-])cc3)CO2)[C@]1(C)O,33591 (erythromycin methicillin-resistant),64 µg/mL
CC(=O)NC[C@H]1CN(c2ccc(-c3cnn(C(C)=O)c3)c(F)c2)C(=O)O1,UC9213 (methicillin-susceptible),2 µg/mL
COC(=O)NC[C@H]1CN(c2ccc3c(c2)-n2cccc2COC3)C(=O)O1,ATCC 49951 (SMITH),4 µg/mL
CC[C@H]1OC(=O)[C@H](C)C(=O)[C@H](C)[C@@H](O[C@@H]2O[C@H](C)C[C@H](N(C)C)[C@H]2O)[C@@]2(C)C[C@@H](C)C(=NC(C)=O)[C@H](C)C(OC/C(=C\C=C\c3cccc([N+](=O)[O-])c3)CO2)[C@]1(C)O,29213 (erythromycin-susceptible),0.5 µg/mL
CC(=S)NC[C@H]1CN(c2ccc3c(c2)-n2cccc2COC3)C(=O)O1,ATCC 49951 (SMITH),1 µg/mL
CC[C@H]1OC(=O)[C@H](C)C(=O)[C@H](C)[C@@H](O[C@@H]2O[C@H](C)C[C@H](N(C)C)[C@H]2O)[C@@]2(C)C[C@@H](C)C(=NC(C)=O)[C@H](C)[C@@H](OC/C(=N\Oc3ccc(-c4nccs4)nc3)CO2)[C@]1(C)O,27660 (erythromycin-resistant),0.13 µg/mL
CC(=O)NC[C@H]1CN(c2ccc3c(c2)-n2cccc2COC3)C(=O)O1,ATCC 29213 (MSSA),2 µg/mL
CC(=O)NC[C@H]1CN(c2ccc(-c3ccn(C(C)=O)n3)c(F)c2)C(=O)O1,UC6685 (methicillin-resistant),4 µg/mL
CC[C@H]1OC(=O)[C@H](C)C(=O)[C@H](C)[C@@H](O[C@@H]2O[C@H](C)C[C@H](N(C)C)[C@H]2O)[C@@]2(C)C[C@@H](C)C(=NC(C)=O)[C@H](C)[C@@H](OC/C(=N\OCc3ccc4nc(N)sc4c3)CO2)[C@]1(C)O,25923 (erythromycin-susceptible),0.13 µg/mL

4 of the rows above, restated:

smiles	strain	value
COC(=O)NC[C@H]1CN(c2ccc3c(c2)-n2cccc2COC3)C(=O)O1	ATCC 49951 (SMITH)	4 µg/mL
O=C1O[C@@H](COc2ccon2)CN1c1ccc(N2CC(O)C2)c(F)c1	004 (methicillin quinolone-resistant)	16 µg/mL
CC(=O)NC[C@H]1CN(c2ccc(-c3ccsc3)c(F)c2)C(=O)O1	UC6685 (methicillin-resistant)	0.5 µg/mL
CC[C@H]1OC(=O)[C@@](C)(F)C(=O)[C@H](C)[C@@H](O[C@@H]2O[C@H](C)C[C@H](N(C)C)[C@H]2O)[C@@]2(C)C[C@@H](C)C(=NC(C)=O)[C@H](C)[C@@H](OC/C(=N\OCc3ccc(C(N)=O)cc3)CO2)[C@]1(C)O	29213 (erythromycin A-susceptible)	0.13 µg/mL